Structures are written as SMILES. The entries are a selection whose mix differs from that of the whole data set. Inconclusive results are not listed. Calls of active or inactive are those of the source. Calls come from the whole dose curve.
Potency is the fitted concentration of half-maximal effect.

This experiment is described as follows: qHTS Assay for Inhibitors of Influenza NS1 Protein Function. Note: actives are rising curves; nearly all actives have a fitted effect of over 50% in size. To be noted: cell-based NS1 function reporter.
With `NC(=O)Nc1ccc([As](=O)(O)O)cc1`, the Potency was active: 3.98 µM.

The values above are taken from PubChem BioAssay AID2326 (National Center for Advancing Translational Sciences (NCATS), 2010).
